Test results as given in publication doi:10.1101/2023.08.20.554025 (bioRxiv, 2023).

What was measured:
[1] = biological target: LayV F N95C/A114C ectodomain (prefusion-stabilized) (Langya virus); test: negative-stain EM
[2] = biological target: LayV F I167F/S186P/N95C/A114C ectodomain (Langya virus); test: negative-stain EM
[3] = biological target: LayV F I167F/S186P ectodomain (Langya virus); test: negative-stain EM
[4] = biological target: T1, LayV F (ectodomain as flowed over 4G5 IgG in Extended Data Fig. 7) (Langya virus (LayV)); test: BLI; 4G5 IgG immobilized on AMC biosensors; 100nM of LayV F or NiV F; details: both partners purified
T1 chain: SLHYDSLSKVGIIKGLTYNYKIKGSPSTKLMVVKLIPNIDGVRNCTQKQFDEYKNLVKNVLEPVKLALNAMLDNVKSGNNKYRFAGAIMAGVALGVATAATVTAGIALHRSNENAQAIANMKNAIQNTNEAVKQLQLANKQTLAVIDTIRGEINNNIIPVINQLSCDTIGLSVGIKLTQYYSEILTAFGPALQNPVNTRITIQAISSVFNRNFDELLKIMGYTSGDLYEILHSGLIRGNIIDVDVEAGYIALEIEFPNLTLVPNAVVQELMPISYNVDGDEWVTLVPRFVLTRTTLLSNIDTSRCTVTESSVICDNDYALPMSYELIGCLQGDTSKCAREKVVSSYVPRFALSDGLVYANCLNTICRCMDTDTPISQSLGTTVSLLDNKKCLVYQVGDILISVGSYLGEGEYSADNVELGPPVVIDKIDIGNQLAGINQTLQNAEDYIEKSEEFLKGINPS

Question: How did the stoichiometry N [1] turn out when “LayV F N95C/A114C ectodomain (prefusion-stabilized) (domain or fragment)” was run?
Answer: Its stoichiometry N is 3.

Question: With “LayV F I167F/S186P/N95C/A114C ectodomain (domain or fragment)” as the molecule, how does the stoichiometry N [2] read?
Answer: The stoichiometry N was 3.

Question: How did the stoichiometry N [3] turn out when “LayV F I167F/S186P ectodomain (domain or fragment)” was run?
Answer: The stoichiometry N was 3.

B1: 4G5 IgG (antibody, V domains shown)
VH: EVQLQQSGADLVKPGASVKLSCTASGFNIKDTYIHWVKQRPEQGLEWIGRIDPANDNFKYDPKFQGKATITTDTSSNTAYLQLSSLTSEDTAVYYCASVITTTGYALDYWGQGTSVTVSS
VL: DIQMTQSPASLSASVGETVTITCRASGNIHNYLAWYQQKQGKSPQLLVYSAKTLADGVPSRFSGSGSGTQYSLKINSLQPEDFGSYYCQHFWSSPRTFGGGTKLEIK
notes: also called MojV F-directed monoclonal antibody (mAb) (4G5); copies: 2 + 2
Question: Does B1 bind [4]?
Answer: Result: binds
